These results are taken from patent US11000571B2 (priority 2016, dated 2021).

The assay concerns intracerebral hemorrhage (“ICH”) mouse model. Description: Intracerebral hemorrhage (ICH) mouse model, 28-point neurological scale. In kind it is in vivo, C57BL/6J mice. Particulars: high dose (32 mg/kg); 24 hours.

Turning to (Aib)HGGGWGQ(Aib)HGGGWGQ, the “sensory response component of 28-point scale” value is given as “improved at statistically significant levels”.
